Taken from: PubChem BioAssay AID504761 (Drosophila RNAi Screening Center, 2011)

- Assay: 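Insect host genes that dengue virus relies on to spread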 (primary screen)
- Cells: D.Mel-2 cells from Drosophila
- Knock-down reagent: long dsRNA against Drosophila genes
- Conditions: infection with dengue virus type 2; dose and infection time not stated
- Measured: 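Per well on two replicate plates, imaging gave the percent of cells positive for viral envelope protein, ranked by infection, and a nuclear count of cells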
- Direction: infection score: higher = more virus-infected cells; cell count: higher = more cells in the well
- Hit rule: 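Very low infection ranking in both replicate wells (chance probability at most 0.065), then a retest showing infection dropped 1.5-fold or more at p below 0.05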
- Calls: active = confirmed: knock-down lowers infection; inactive = not picked or not confirmed
The screen tested about 22,000 reagents; shown is a random part of those with a known target gene and a result. In the full data, 116 (0.52%) got an active call. 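Calls depend on retest data that are not deposited; infection was ranked per plate without normalising between plates; the unit of the infection score is not given.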 Raw values vary from plate to plate and are shown uncorrected. Names joined by + are all predicted targets of the reagent. No sequences are given here. Not stated in the record: the amount of reagent, the time to read-out.

no.	gene	amplicon	infection score, replicate 1	infection score, replicate 2	cell count, replicate 1	cell count, replicate 2	outcome
1	CG17760	DRSC06694	6.49	3.59	6530	6398	inactive
2	CG17760	DRSC25493	2.26	3.23	5966	6043	inactive
3	CG8861	DRSC12731	1.18	0.76	5763	5949	inactive
4	CG8861	DRSC16449	6.25	7.89	7037	6993	inactive
5	CG11227	DRSC20476	3.86	7.6	5599	5657	inactive
6	CG11227	DRSC29906	35.5	13.8	3825	6694	inactive
7	CG8531	DRSC07209	5.52	11.9	6018	6121	inactive
8	hoka	DRSC08313	5.34	1.99	6160	5969	inactive
9	COX7A	DRSC16514	11.1	10.9	6031	6443	inactive
10	Pkg21D	DRSC00772	1.61	2.78	6072	6322	inactive
11	Pkg21D	DRSC29092	6.14	12.2	1385	6469	inactive
12	fau	DRSC12816	0.68	0.4	6351	6053	inactive
13	fau	DRSC12817	2.09	0.32	6073	5709	inactive
14	fau	DRSC16943	30.7	15.4	4344	5921	inactive
15	fau	DRSC16944	2.17	2.99	6537	6455	inactive
16	fau	DRSC16945	1.53	3.67	6402	6972	inactive
17	fau	DRSC22360	1.78	1.76	6451	6772	inactive
18	fau	DRSC27672	9.8	7.16	6237	6298	inactive
19	CG2004	DRSC18200	1.83	11.1	6657	5943	inactive
20	bchs	DRSC03126	0.66	4.68	6393	6050	inactive
21	Cpr47Eb	DRSC06345	7.32	16.4	6350	5630	inactive
22	CG11449	DRSC11662	7.67	9.43	6308	6472	inactive
23	CG11449	DRSC29180	14.7	20.8	5891	6287	inactive
24	CG7430	DRSC10845	5.3	8.57	5750	6197	inactive
25	Usp1	DRSC14155	1.07	1.81	6053	6804	inactive
26	CG6839	DRSC10723	4.18	7.51	6859	6414	inactive
27	Hex-C	DRSC07079	6.91	9.86	6653	5600	inactive
28	Hex-C	DRSC24095	4.02	4.46	6640	6567	inactive
29	CG15533	DRSC15069		9.21	257	5439	inactive
30	CG15533	DRSC30031	2.64	5.72	6525	6778	inactive
31	Adgf-A	DRSC10566	22.5	5.9	3671	6353	inactive
32	Adgf-A	DRSC24552	2.38	11.1	6216	6394	inactive
33	Acyp	DRSC01861	6.24	3.08	5605	5707	inactive
34	KLHL18	DRSC15496	8.54	5.15	6320	6627	inactive
35	KLHL18	DRSC26629	1.69	10.1	6608	5543	inactive
36	Polr3B	DRSC07536	3.77	7.69	4848	5242	inactive
37	Rox8	DRSC16829	1.63	5.17	6441	6054	inactive
38	Rox8	DRSC29536	16.3	16.7	2230	6085	inactive
39	CG5846	DRSC02904	4.99	3.23	6212	6368	inactive
40	NitFhit	DRSC08680	3.63	10.4	6317	6421	inactive
41	NitFhit	DRSC28018		15.5	445	6310	inactive
42	bun	DRSC01255	0.93	0.56	6579	6094	inactive
43	bun	DRSC23041	0.62	3.93	6105	6643	inactive
44	bun	DRSC25816	11.2	15.2	6207	5848	inactive
45	Abd-B	DRSC14098	5.57	4.99	5692	6934	inactive
46	Abd-B	DRSC14337	11.8	4.04	5572	6938	inactive
47	Abd-B	DRSC28796	12.8	0.87	2219	804	inactive
48	CG10570 + CG42502	DRSC28566	10.7	7.3	3878	2548	inactive
49	CG15404	DRSC00418	7.51	4.46	6521	6195	inactive
50	se	DRSC10713	1.75	1.79	6052	6664	inactive
51	Vps33B	DRSC15722	5.21	2.13	6609	6530	inactive
52	Delta	DRSC16648	5.3	8.08	7057	6644	inactive
53	Delta	DRSC24112	1.21	1.21	6602	6592	inactive
54	wda	DRSC15579	11.3	5.83	6759	7000	inactive
55	wda	DRSC22351	1.35	6.26	6668	6676	inactive
56	crq	DRSC00810	24.5	1.63	5006	7035	inactive
57	CG5888	DRSC01929	15.3	7.15	6127	6505	inactive
58	CG5888	DRSC28190	13.3	8.89	6397	6590	inactive

Laid out differently: entries from further up.
{"gene": "CG6839", "amplicon": "DRSC10723", "infection score, replicate 1": 4.18, "infection score, replicate 2": 7.51, "cell count, replicate 1": 6859, "cell count, replicate 2": 6414, "outcome": "inactive"}
{"gene": "Hex-C", "amplicon": "DRSC07079", "infection score, replicate 1": 6.91, "infection score, replicate 2": 9.86, "cell count, replicate 1": 6653, "cell count, replicate 2": 5600, "outcome": "inactive"}
{"gene": "Hex-C", "amplicon": "DRSC24095", "infection score, replicate 1": 4.02, "infection score, replicate 2": 4.46, "cell count, replicate 1": 6640, "cell count, replicate 2": 6567, "outcome": "inactive"}
{"gene": "CG15533", "amplicon": "DRSC15069", "infection score, replicate 2": 9.21, "cell count, replicate 1": 257, "cell count, replicate 2": 5439, "outcome": "inactive"}
{"gene": "CG15533", "amplicon": "DRSC30031", "infection score, replicate 1": 2.64, "infection score, replicate 2": 5.72, "cell count, replicate 1": 6525, "cell count, replicate 2": 6778, "outcome": "inactive"}
{"gene": "Adgf-A", "amplicon": "DRSC10566", "infection score, replicate 1": 22.5, "infection score, replicate 2": 5.9, "cell count, replicate 1": 3671, "cell count, replicate 2": 6353, "outcome": "inactive"}
{"gene": "Adgf-A", "amplicon": "DRSC24552", "infection score, replicate 1": 2.38, "infection score, replicate 2": 11.1, "cell count, replicate 1": 6216, "cell count, replicate 2": 6394, "outcome": "inactive"}
{"gene": "Acyp", "amplicon": "DRSC01861", "infection score, replicate 1": 6.24, "infection score, replicate 2": 3.08, "cell count, replicate 1": 5605, "cell count, replicate 2": 5707, "outcome": "inactive"}
